Compound potency records, mixed from different reports. Data source: NIAID ChemDB in PubChem.

Shared fields: tests in culture; agent: Candida albicans; endpoint: MIC

An empty or dashed field is not shown.

SMILES | strain | method | value
Cc1ccc(CC(=O)Nc2ccc([N+](=O)[O-])cc2O)cc1 | Isolates |  | 250 µg/mL
Nn1c(SCC(O)(Cn2cncn2)c2ccc(Cl)cc2Cl)nnc1-c1ccc(Cl)cc1 | ATCC 18804 | broth dilution | >64 µg/mL
O=c1[nH][nH]c2c1C(c1ccc(F)cc1)CC(Cc1ccc3ccccc3c1)=C2 |  | agar diffusion | 50 µg/mL
CCCCCOc1ccc(-c2ccc(-c3ccc(C(=O)N[C@H]4CCCNC(=O)C5C[C@H](NC(=O)CCc6ccccc6)CN5C(=O)C(C(C)O)NC(=O)C(CCc5ccc(O)cc5)NC(=O)C5C[C@@H](O)CN5C(=O)C(C(C)O)NC4=O)cc3)cc2)cc1 | ATCC 10231 |  | 25 µg/mL
CCn1c2ccccc2c2cn[nH]c(=O)c21 |  | broth dilution | 250 µg/mL
C=C=CCN1C[C@H](OC[C@@]23C[C@@H]4[C@H](C)CC[C@H]4[C@@]4(C=O)C[C@@H]2CC(C(C)C)[C@@]34C(=O)O)O[C@H](C)C1 | 4711E |  | ≤0.001 µg/mL
CCCCCCCCC(=O)O[C@H]1Cc2c(O)cc(O)cc2O[C@@H]1c1ccc(O)c(O)c1 | ATCC 10231 |  | 8 µg/mL
Cc1ccc(C)n1-n1c(-c2ccccc2)n[nH]c1=O | ATCC16231 |  | >250 µg/mL
C=CCN1C[C@H](OC[C@@]23C[C@@H]4[C@H](C)CC[C@H]4[C@@]4(C=O)C[C@@H]2CC(C(C)C)[C@@]34C(=O)O)O[C@H](C)C1 | CL-236 |  | 0.008 µg/mL
CC(C)[C@@H](C)[C@H](O)[C@@H]1CC23CC(=O)[C@]4(O)C(=C2CC[C@@H]3[C@@H]1C)C=C[C@]1(O)C[C@@H](O)CC[C@]41C | IFM 40009 |  | >80 µg/mL
COc1ccc(-c2nnc(SCC(O)(Cn3cncn3)c3ccc(Cl)cc3Cl)n2N)cc1 | IRFC 37 | broth dilution | 4 µg/mL
CCCCCCCCCCCCC/C=C\C1=N[C@H]1C(=O)OC | ATCC 14503 |  | 8 µg/mL
COc1cc(O)c2c(c1)C(=O)c1c(cc3c(c1O)-c1c(cc(C)c(C(=O)NCC(=O)O)c1O)[C@H](O[C@@H]1O[C@H](C)[C@H](N)[C@H](O[C@@H]4OC[C@@H](O)[C@H](O)[C@H]4O)[C@H]1O)[C@H]3O)C2=O | A9540 |  | 6.3 µg/mL
C[C@@]12CCC[C@]3(C)C4=CC(=O)OC(O)C4C=C(OC1=O)[C@@H]23 | CECT 1394 |  | >25 µg/mL
CC(=O)OC1C(=O)N(c2ccccc2)C1c1ccccc1 | SH/T54 |  | 356 µM
CC(C)C(=O)/C=C1/Sc2ccccc2N1Cc1ccccc1 | ATCC 10231 |  | ≥100 µg/mL
CCCCCCC(=O)O[C@H]1Cc2c(O)cc(O)cc2O[C@@H]1c1ccc(O)c(O)c1 | ATCC 10231 |  | 128 µg/mL
Nn1c(SCC(O)(Cn2cncn2)c2ccc(F)cc2F)nnc1-c1ccc(F)cc1 | ATCC 18804 | broth dilution | >64 µg/mL
O=C(Nc1ccc([N+](=O)[O-])cc1O)c1ccc(F)cc1 | ATCC 10231 |  | 7.8 µg/mL
CCOC(=O)c1c(C#N)c2ccccc2n1CC |  | broth dilution | 250 µg/mL
COc1cc2c(cc1OC)-c1cc3ccc(OC)c(OC)c3c[n+]1CC2 | ATCC28838 |  | >500 µg/mL
CC(=O)O[C@@H]1C(=O)N(c2ccc(C(=O)O)cc2)[C@H]1c1ccc2c(c1)OCO2 | SH/T54 |  | 135.5 µM
O=c1[nH]nc(Cc2ccccc2)n1CCO | ATCC16231 |  | >250 µg/mL
N=C(N)c1ccc2nc(-c3ccc(-c4nc5ccc(C(=N)N)cc5[nH]4)[nH]3)[nH]c2c1 | Isolate 1 (strain 2-76) |  | 0.78 µg/mL
CO[C@@H]1C[C@H](C[C@@H](C)[C@@H]2CC(=O)[C@H](C)/C=C(\C)[C@@H](O)[C@@H](OC)C(=O)[C@H](C)C[C@H](C)/C=C/C=C/C=C(\C)[C@H](N(O)C(N)=O)C[C@@H]3CC[C@@H](C)[C@@](O)(O3)C(=O)C(=O)N3CCCC[C@H]3C(=O)O2)CC[C@H]1C(=O)ON(C)O | 442 |  | 100 µg/mL
C[C@H](N)C(=O)NC(C(=O)O)n1cc(F)c(=O)[nH]c1=O | BC759 |  | 6.3 µg/mL
CCC(=O)C1Sc2ccccc2N(C2CCCCCC2)C1=O | ATCC 10231 |  | ≥100 µg/mL
Nn1c(SCC(O)(Cn2cncn2)c2ccc(F)cc2F)nnc1-c1ccc(Cl)cc1 | IRFC 192 | broth dilution | >64 µg/mL
O=c1[nH]nc(-c2ccccc2)n1-c1ccncc1 | ATCC16231 |  | >250 µg/mL
CO[C@@H]1C[C@H](C[C@@H](C)[C@@H]2CC(=O)[C@H](C)/C=C(\C)[C@@H](O)[C@@H](OC)C(=O)[C@H](C)C[C@H](C)/C=C/C=C/C=C(\C)[C@H](N(O)C(=O)N(C)C)C[C@@H]3CC[C@@H](C)[C@@](O)(O3)C(=O)C(=O)N3CCCC[C@H]3C(=O)O2)CC[C@H]1C(=O)ON(C)O | 579A |  | 100 µg/mL
O=C1c2ccccc2C(=O)N1n1c(Cc2ccccc2)n[nH]c1=O | ATCC16231 |  | >250 µg/mL
C[C@@]12CCC[C@]3(C)C4=CC(=O)OC[C@]45O[C@@H]5C(OC1=O)[C@@H]23 | CECT 1394 |  | 32 µg/mL
CCC(O)/C=C/C=C/C=C/C(=O)OC[C@H]1O[C@@H](O[C@H]2[C@H](OC(=O)/C=C/C=C/CC(O)/C(C)=C/C=C/CCC(C)CC)[C@@H](O)[C@@]3(OCc4cc(O)cc(O)c43)O[C@@H]2CO)[C@H](O)[C@@H](O)[C@H]1O | ATCC 32354 |  | 1.6 µg/mL
Nn1c(SCC(O)(Cn2cncn2)c2ccc(Cl)cc2Cl)nnc1-c1ccccc1 | PTCC 6027 | broth dilution | 4 µg/mL
CC(C)C1C[C@H]2C[C@]3(C=O)[C@@H]4CC[C@@H](C)[C@H]4C[C@@]2(CO[C@H]2CN(C4CC4)C[C@@H](C)O2)[C@]13C(=O)O | CL-245 (fluconazole-resistant) |  | ≤0.001 µg/mL
CC(=O)C[C@H]1C[C@H]2[C@H]([C@@H]3c4[nH]c5ccccc5c4CCN13)[C@H](O)C13CC/C=C\CCCCN1CC21CC/C=C\CCCNC13 |  |  | 20 µg/mL
Nn1c(SCC(O)(Cn2cncn2)c2ccc(Cl)cc2Cl)nnc1-c1ccc(O)cc1 | ATCC 18804 | broth dilution | 64 µg/mL
Cn1c2ccccc2c2cnn(-c3ccc(F)cc3)c(=O)c21 |  | broth dilution | 250 µg/mL
CCCCCOc1ccc(-c2ccc(-c3ccc(C(=O)N[C@H]4CCCNC(=O)C5C[C@H](NC(=O)NCCC(C)C)CN5C(=O)C(C(C)O)NC(=O)C(CCc5ccc(O)cc5)NC(=O)C5C[C@@H](O)CN5C(=O)C(C(C)O)NC4=O)cc3)cc2)cc1 | ATCC CCH442 |  | 12.5 µg/mL
Cc1ccc(C2CC(Cc3ccc(CC(C)C)cc3)=Cc3[nH][nH]c(=O)c32)cc1 |  | agar diffusion | 25 µg/mL
CCCCC/C=C\C1=N[C@H]1C(=O)OC | UCD-FR1 |  | >64 µg/mL
COc1ccc(-c2ccc(C(=O)N[C@H]3CCCNC(=O)C4C[C@H](N)CN4C(=O)C(C(C)O)NC(=O)C(CCc4ccc(O)cc4)NC(=O)C4C[C@@H](O)CN4C(=O)C(C(C)O)NC3=O)cc2)cc1 | ATCC 10231 |  | 6.25 µg/mL
O=c1[nH]nc(Cc2ccc(Cl)cc2)n1Nc1ccccc1 | ATCC16231 |  | >250 µg/mL
O=C1C(O)C(c2ccccc2)N1c1ccccc1 | SH/T54 |  | 52.29 µM
CCCCCOc1ccc(N(C)CCN(C)c2ccc(C(=O)N[C@H]3CCCNC(=O)C4C[C@H](N)CN4C(=O)C(C(C)O)NC(=O)C(CCc4ccc(O)cc4)NC(=O)C4C[C@@H](O)CN4C(=O)C(C(C)O)NC3=O)cc2)cc1 | ATCC 10231 |  | 3.12 µg/mL
CO[C@@H]1OC(=O)C=C2C1C=C1OC(=O)[C@@]3(C)CCC[C@@]2(C)[C@@H]13 | CECT 1394 |  | <6.25 µg/mL
Nn1c(SCC(O)(Cn2cncn2)c2ccc(Cl)cc2Cl)nnc1-c1ccc(F)cc1 | IRFC 192 | broth dilution | >64 µg/mL
COc1ccc(-n2ncc3c([nH]c4ccccc43)c2=O)cc1 |  | broth dilution | 250 µg/mL
C[C@H](N)C(=O)N[C@H](C(=O)O)n1cc(F)c(=O)[nH]c1=O | BC759 |  | 1.6 µg/mL
Cc1ccc(-c2nnc(SCC(O)(Cn3cncn3)c3ccc(F)cc3F)n2N)cc1 | ATCC 18804 | broth dilution | >64 µg/mL
CC(=O)OC1C(=O)N(c2ccccc2)C1c1ccc2c(c1)OCO2 | SH/T54 |  | 154 µM
CCCCCOc1ccc(-c2ccc(-c3ccc(C(=O)N[C@H]4CCCNC(=O)C5CNCN5C(=O)C(C(C)O)NC(=O)C(CCc5ccc(O)cc5)NC(=O)C5C[C@@H](O)CN5C(=O)C(C(C)O)NC4=O)cc3)cc2)cc1 | ATCC 62376 |  | 0.78 µg/mL
C[C@H]1[C@H](O)[C@@H](C)/C=C/C=C/C=C/C=C/C=C/C=C/C=C/[C@H](O[C@@H]2O[C@H](C)[C@@H](O)[C@H](N)[C@@H]2O)C[C@@H]2O[C@](O)(C[C@@H](O)C[C@@H](O)CC[C@H](O)[C@@H](O)C[C@@H](O)CC(=O)O[C@H]1C)C[C@H](O)[C@H]2C(=O)O | ATCC 10231 |  | 1.56 µg/mL
CO[C@@H]1C[C@H](C[C@@H](C)[C@@H]2CC(=O)[C@H](C)/C=C(\C)[C@@H](O)[C@@H](OC)C(=O)[C@H](C)C[C@H](C)/C=C/C=C/C=C(\C)[C@@H](N(O)C(=O)N(C)C)C[C@@H]3CC[C@@H](C)[C@@](O)(O3)C(=O)C(=O)N3CCCC[C@H]3C(=O)O2)CC[C@H]1C(=O)ON(C)O | 442 |  | 100 µg/mL
CS(=O)(=O)OC1C(=O)N(c2ccccc2)C1c1ccccc1 | SH/T54 |  | 18.92 µM
CCCCCCCCCCCCCCCC1=N[C@H]1C(=O)OC | UCD-FR1 |  | >64 µg/mL
COC(=O)[C@@]1(C)CCC[C@]2(C)c3cc(=O)occ3C=C[C@@H]12 | CECT 1394 |  | >100 µg/mL
COc1ccc(C2CC(Cc3ccc(CC(C)C)cc3)=Cc3[nH][nH]c(=O)c32)cc1 |  | agar diffusion | 200 µg/mL
COC(=O)c1ccc(N2C(=O)C(OC(C)=O)C2c2ccc(OC)cc2)cc1 | SH/T54 |  | 16.26 µM
Cc1ccc(Cc2n[nH]c(=O)n2-c2ccccc2)cc1 | ATCC16231 |  | >250 µg/mL
COc1ccc2c(c1)S/C(=C\C(=O)C(C)C)N2C1=CCCCCC1 | ATCC 10231 |  | >100 µg/mL
Nc1ccc(NC(=O)c2ccc(Br)cc2)c(O)c1 | Isolates |  | 125 µg/mL
C[C@@]12CCC[C@]3(C)C4=CC(=O)OCC4=CC(OC1=O)[C@@H]23 | CECT 1394 |  | >100 µg/mL
O=S1c2ccccc2SN1C1CC1 | 38247 |  | 50 µg/mL
N[C@H]1CCC[C@H]1C(=O)O | ATCC 32354 (B311) |  | 5 µg/mL
C[C@@H](c1ncncc1F)[C@](O)(Cn1cncn1)c1ccc(F)cc1F | ATCC 36082 |  | 1 µg/mL
Nn1c(SCC(O)(Cn2cncn2)c2ccc(F)cc2F)nnc1-c1ccccc1 | IRFC 192 | broth dilution | >64 µg/mL
CC(C)C(=O)/C=C1\Sc2ccccc2N1/C1=C/CCCCCCCCCC1 | ATCC 10231 |  | >100 µg/mL
CCCCCCCCCCCCC/C=C/C1=N[C@H]1C(=O)OC | 96-489 |  | >64 µg/mL
O=c1[nH][nH]c2c1C(c1ccccc1)CC(Cc1ccc3ccccc3c1)=C2 |  | agar diffusion | 200 µg/mL
CO[C@H]1C[C@@H]2CC[C@@H](C)[C@@](O)(O2)C(=O)C(=O)N2CCCC[C@H]2C(=O)O[C@H]([C@H](C)C[C@@H]2CC[C@H](c3nn[nH]n3)[C@H](OC)C2)CC(=O)[C@H](C)/C=C(\C)[C@@H](O)[C@@H](OC)C(=O)[C@H](C)C[C@H](C)CCCC/C=C/1C | 579A |  | >100 µg/mL
Cc1cc(COc2ccc(Oc3ccc(Cl)cc3)cc2)n(O)c(=O)c1 | TIMM2640 |  | 2 µg/mL
CCCCCc1ccc(C(=O)N[C@H]2CCCNC(=O)C3C[C@H](N)CN3C(=O)C(C(C)O)NC(=O)C(CCc3ccc(O)cc3)NC(=O)C3C[C@@H](O)CN3C(=O)C(C(C)O)NC2=O)cc1 | ATCC CCH442 |  | 25 µg/mL
Cc1ccc(CC(=O)Nc2ccc(N)cc2O)cc1 | ATCC 10231 |  | 250 µg/mL

The last 8 rows once more:

SMILES,strain,method,value
Nn1c(SCC(O)(Cn2cncn2)c2ccc(F)cc2F)nnc1-c1ccccc1,IRFC 192,broth dilution,>64 µg/mL
CC(C)C(=O)/C=C1\Sc2ccccc2N1/C1=C/CCCCCCCCCC1,ATCC 10231,,>100 µg/mL
CCCCCCCCCCCCC/C=C/C1=N[C@H]1C(=O)OC,96-489,,>64 µg/mL
O=c1[nH][nH]c2c1C(c1ccccc1)CC(Cc1ccc3ccccc3c1)=C2,,agar diffusion,200 µg/mL
CO[C@H]1C[C@@H]2CC[C@@H](C)[C@@](O)(O2)C(=O)C(=O)N2CCCC[C@H]2C(=O)O[C@H]([C@H](C)C[C@@H]2CC[C@H](c3nn[nH]n3)[C@H](OC)C2)CC(=O)[C@H](C)/C=C(\C)[C@@H](O)[C@@H](OC)C(=O)[C@H](C)C[C@H](C)CCCC/C=C/1C,579A,,>100 µg/mL
Cc1cc(COc2ccc(Oc3ccc(Cl)cc3)cc2)n(O)c(=O)c1,TIMM2640,,2 µg/mL
CCCCCc1ccc(C(=O)N[C@H]2CCCNC(=O)C3C[C@H](N)CN3C(=O)C(C(C)O)NC(=O)C(CCc3ccc(O)cc3)NC(=O)C3C[C@@H](O)CN3C(=O)C(C(C)O)NC2=O)cc1,ATCC CCH442,,25 µg/mL
Cc1ccc(CC(=O)Nc2ccc(N)cc2O)cc1,ATCC 10231,,250 µg/mL

Lines come from different laboratories, so protocols vary.